In patent publication US20110186731A1, “LCMS TECHNOLOGY AND ITS USES” (priority 2008, published 2011):
Some results come without the dose or concentration used.

These sequences were tested on HLA-DR2 (assay: Semiquantification of B. pertussis-derived HLA-DR2 epitopes after processing of whole bacterial cells by MDDC (approach D)). Details: HLA-DR2 homozygous MDDC pulsed with whole cell B. pertussis.
Assay type: cell-based, human

Sequence	Abundance (copies/cell)
KPDQGEVVAVGPGKKTEDG (listed as Bordetella pertussis) [SEQ ID NO: 64]	80
LAEVLDYHNFVLTQ (listed as Bordetella pertussis) [SEQ ID NO: 61]	10
GGAEYNLALGQRRA (listed as Bordetella pertussis) [SEQ ID NO: 63]	10
IALYPNSQLAPT (listed as Bordetella pertussis) [SEQ ID NO: 60]	25
KPDQGEVVAVGPGKKTED (listed as Bordetella pertussis) [SEQ ID NO: 65]	5
AAFIALYPNSQLAPT (listed as Bordetella pertussis) [SEQ ID NO: 59]	175
GGAEYNLALGQRRADA (listed as Bordetella pertussis) [SEQ ID NO: 62]	350

The sequences below were run on HLA-DR (assay: Semiquantification of HLA-DR presented epitopes from B. pertussis P.69 Prn1 on pulsed MDDC (approach E)). Details: pooled MDDC of 9 donors pulsed with rP.69 Prn1.
Assay type: cell-based, human

Sequence	Abundance (copies/cell)
LRDTNVTAVPASGAPA (listed as Bordetella pertussis) [SEQ ID NO: 66]	190
STLWYAESNALSKR (listed as Bordetella pertussis) [SEQ ID NO: 70]	370
ASTLWYAESNALSKRL (listed as Bordetella pertussis) [SEQ ID NO: 69]	90
RDTNVTAVPASGAPA (listed as Bordetella pertussis) [SEQ ID NO: 67]	70
QPAEAGRFKVLTVNTLAGSG (listed as Bordetella pertussis) [SEQ ID NO: 72]	750
EAGRFKVLTVNTLAGSG (listed as Bordetella pertussis) [SEQ ID NO: 71]	75
STLWYAESNALSKRLG (listed as Bordetella pertussis) [SEQ ID NO: 68]	310

What follows are sequences tested on HLA-DR (assay: Semiquantification of Neisseria meningitidis OMV-derived HLA-DR epitopes on pulsed MDDC (approach F)). Details: PorA-derived epitopes; HLA-DR1 or HLA-DR2 MDDC pulsed with P1.7-2.4 or P1.5-2.10 OMV.
Assay type: cell-based, human

Sequence	Abundance (copies/cell)
KRHDDMSVSVRYDSPEFSGFSGSVQFVPAQNSK (listed as Neisseria meningitidis) [SEQ ID NO: 92]	110
